Assay: FTICR-MS of DMG-metal complexes
Assay type: physicochemical
Details: aqueous DMG 1.6 mM, metal 0.16 mM

## CC(=NO)C(C)=NO [DMG, dimethylglyoxime]
  DMG coordination with Fe, Zn or Se: does not coordinate
